Anti-infective test results gathered from many reports (values: NIAID ChemDB through PubChem).

Common to all: tests in culture; species: Measles virus; endpoint: EC50

An empty or dashed field is not shown. Rows are shuffled and stem from different studies. ECn: concentration that inhibits the pathogen or its effect by n%.

{"compound": "Nc1ncnc2c1ncn2[C@@H]1C[C@H](COP(=O)(O)O)[C@@H](O)[C@H]1O", "cell line": "VERO", "method": "cytopathic effect", "result": ">200 µg/mL"}
{"compound": "CSc1nsc(-c2ccc(OCc3ccccc3)cc2)c1C#N", "cell line": "HEP-2/L-929/VERO", "method": "plaque count", "result": "10 µM"}
{"compound": "Nc1ncnc2c1ncn2[C@@H]1C[C@H](N)[C@@H](O)[C@H]1O", "strain or isolate": "X-1108", "cell line": "CV-1", "method": "cytopathic effect", "result": "10 µg/mL"}
{"compound": "N#Cc1csnc1-c1ccccc1", "strain or isolate": "Edmonston", "cell line": "HEP-2", "method": "plaque count", "result": ">100 µM"}
{"compound": "COc1ccc(/C=N/N=C(\\N)NO)cc1.Cc1ccc(S(=O)(=O)O)cc1", "cell line": "VERO", "method": "plaque count", "result": ">50 µM"}
{"compound": "CSc1nsc(-c2ccc(OCCOc3ccc(C#N)cc3)cc2)c1C#N", "cell line": "HEP-2/L-929/VERO", "method": "plaque count", "result": ">2 µM"}
{"compound": "CC(C)CS[C@@H]1C=C[C@H](n2cnc3c(N)ncnc32)C1", "strain or isolate": "DAVIS", "cell line": "HEL", "method": "cytopathic effect", "result": "≥100 µg/mL"}
{"compound": "Nc1ncnc2c1ncn2[C@@H]1C=C[C@@H](O)[C@H]1O", "strain or isolate": "Edmonston", "cell line": "CV-1", "method": "cytopathic effect", "result": ">64 µg/mL"}
{"compound": "CCCc1cc(=O)oc2cc(OS(=O)(=O)c3ccc(C)cc3)cc(OS(=O)(=O)c3ccc(C)cc3)c12", "strain or isolate": "Chicago-1", "cell line": "CV-1", "method": "virus yield", "result": "<1 µg/mL"}
{"compound": "Nc1nc(=O)c2nc(-c3ccccc3)n([C@@H]3O[C@H](CO)[C@@H](O)[C@H]3O)c2c(=O)[nH]1", "cell line": "CV-1", "method": "cytopathic effect", "result": "10 µM"}
{"compound": "CSc1nsc(-c2ccc(OCCCOc3ccc(C#N)cc3)cc2)c1C#N", "cell line": "HEP-2/L-929/VERO", "method": "plaque count", "result": ">2 µM"}
{"compound": "O=C(O)c1cn(/N=C/c2ccc(Br)cc2)c(=O)c2ccccc12", "strain or isolate": "Edmonston", "cell line": "HEP-2/L-929/VERO", "method": "plaque count", "result": "15 µM"}
{"compound": "CSc1nsc(-c2ccc(Cl)cc2Cl)c1C#N", "strain or isolate": "Edmonston", "cell line": "HEP-2", "method": "plaque count", "result": ">8 µM"}
{"compound": "O=C(O)c1cn(/N=C/c2ccccc2Br)c(=O)c2ccccc12", "strain or isolate": "Edmonston", "cell line": "HEP-2/L-929/VERO", "method": "plaque count", "result": ">30 µM"}
{"compound": "Nc1ncnc2c1ncn2C1CC(COP(=O)(O)O)[C@@H](O)[C@H]1O", "cell line": "VERO", "method": "cytopathic effect", "result": "≥10 µg/mL"}
{"compound": "O=C(O)c1cn(/N=C/c2ccccc2Cl)c(=O)c2ccccc12", "strain or isolate": "Edmonston", "cell line": "HEP-2/L-929/VERO", "method": "plaque count", "result": ">30 µM"}
{"compound": "COc1cc(OC)c(/C=N/N=C(/N)NO)c(OC)c1.Cc1ccc(S(=O)(=O)O)cc1", "cell line": "VERO", "method": "plaque count", "result": ">50 µM"}
{"compound": "CCCCOc1ccc(-c2snc(SC)c2C#N)cc1", "strain or isolate": "Edmonston", "cell line": "HEP-2", "method": "plaque count", "result": "10 µM"}
{"compound": "Nc1nc(=O)c2ncn([C@@H]3O[C@H](CO)[C@@H](O)[C@H]3O)c2c(=O)[nH]1", "cell line": "CV-1", "method": "neutral red", "result": ">100 µM"}
{"compound": "CSc1nsc(-c2cccs2)c1C#N", "strain or isolate": "Edmonston", "cell line": "HEP-2", "method": "plaque count", "result": ">6 µM"}
{"compound": "Cc1ccc(S(=O)(=O)O)cc1.N/C(=N/N=C/c1ccc2c(c1)OCO2)NO", "cell line": "VERO", "method": "plaque count", "result": ">50 µM"}
{"compound": "CCOC(=O)c1ccc(OCCOc2ccc(-c3snc(SC)c3C#N)cc2)cc1", "cell line": "HEP-2/L-929/VERO", "method": "plaque count", "result": ">2 µM"}
{"compound": "CCCc1cc(=O)oc2c3c(c4c(c12)OC(C)(C)[C@H](O)[C@@H]4O)O[C@H](C)[C@@H](C)[C@@H]3O", "strain or isolate": "CC", "cell line": "CV-1", "method": "cytopathic effect", "result": "4 µg/mL"}
{"compound": "Nc1ncnc2c1ncn2[C@@H]1CC[C@@H](O)[C@H]1O", "strain or isolate": "CC", "cell line": "CV-1", "method": "cytopathic effect", "result": "0.5 µg/mL"}
{"compound": "CCOC(=O)c1ccc(OCCCOc2ccc(-c3snc(SC)c3C#N)cc2)cc1", "cell line": "HEP-2/L-929/VERO", "method": "plaque count", "result": ">2 µM"}
{"compound": "Nc1ncnc2c1ncn2[C@@H]1C[C@H](O)[C@@H](O)[C@H]1O", "cell line": "CV-1", "method": "neutral red", "result": "<1 µg/mL"}
{"compound": "CSc1nsc(-c2ccc(OCCc3ccccc3)cc2)c1C#N", "cell line": "HEP-2/L-929/VERO", "method": "plaque count", "result": "10 µM"}
{"compound": "O=C(O)c1cn(/N=C/C=C/c2ccccc2)c(=O)c2ccccc12", "strain or isolate": "Edmonston", "cell line": "HEP-2/L-929/VERO", "method": "plaque count", "result": "12.5 µM"}
{"compound": "CSc1nsc(-c2ccc(OCCOc3ccccc3)cc2)c1C#N", "cell line": "HEP-2/L-929/VERO", "method": "plaque count", "result": ">20 µM"}
{"compound": "O=C(O)c1cn(/N=C/CCc2ccccc2)c(=O)c2ccccc12", "strain or isolate": "Edmonston", "cell line": "HEP-2/L-929/VERO", "method": "plaque count", "result": ">750 µM"}
{"compound": "N#Cc1c(-c2ccccc2)nsc1Cl", "strain or isolate": "Edmonston", "cell line": "HEP-2", "method": "plaque count", "result": ">20 µM"}
{"compound": "O=C(O)c1cn(/N=C/c2ccccc2)c(=O)c2ccccc12", "strain or isolate": "Edmonston", "cell line": "HEP-2/L-929/VERO", "method": "plaque count", "result": "48 µM"}
{"compound": "CCCc1cc(=O)oc2cc(OS(=O)(=O)c3ccc(C)cc3)cc(O)c12", "strain or isolate": "BIL", "cell line": "CV-1", "method": "cytopathic effect", "result": "0.1 µg/mL"}
{"compound": "CSc1nsc(-c2ccc(OCCCCOc3ccc(C#N)cc3)cc2)c1C#N", "cell line": "HEP-2/L-929/VERO", "method": "plaque count", "result": ">2 µM"}
{"compound": "CC(/C=N/n1cc(C(=O)O)c2ccccc2c1=O)=C\\c1ccccc1", "strain or isolate": "Edmonston", "cell line": "HEP-2/L-929/VERO", "method": "plaque count", "result": "10 µM"}

Again, the opening 4 rows:

compound	strain or isolate	cell line	method	result
Nc1ncnc2c1ncn2[C@@H]1C[C@H](COP(=O)(O)O)[C@@H](O)[C@H]1O	-	VERO	cytopathic effect	>200 µg/mL
CSc1nsc(-c2ccc(OCc3ccccc3)cc2)c1C#N	-	HEP-2/L-929/VERO	plaque count	10 µM
Nc1ncnc2c1ncn2[C@@H]1C[C@H](N)[C@@H](O)[C@H]1O	X-1108	CV-1	cytopathic effect	10 µg/mL
N#Cc1csnc1-c1ccccc1	Edmonston	HEP-2	plaque count	>100 µM